Pooled drug test results. Numbers come from NIAID ChemDB, via PubChem.

Common to all: tests in culture; agent: HIV-1; cells: TZM-bl; measure: EC50

ECn: concentration that inhibits the pathogen or its effect by n%.

{"SMILES": "O=C(CCC(=O)n1cnc2ccccc21)n1cnc2ccccc21", "strain or isolate": "ADA5", "method": "luciferase", "value": "40 µM"}
{"SMILES": "COc1cccc2ccc(/C=C/C(=O)Nc3ccccc3)nc12", "strain or isolate": "UG070", "method": "luminescence", "value": "12.68 µM"}
{"SMILES": "O=C1NC(=NCc2ccc(F)cc2)S/C1=C\\c1ccc(-c2ccc(C(=O)O)c(O)c2)o1", "strain or isolate": "AD8", "method": "β-galactosidase", "value": "1 µM"}
{"SMILES": "COc1cccc2ccc(/C=C/C(=O)Nc3ccccc3F)nc12", "strain or isolate": "VB59", "method": "luminescence", "value": "3.35 µM"}
{"SMILES": "CC(=O)Oc1ccc(/C=C/C(=O)CCc2ccc(NC(=O)Cc3cccs3)cc2)cc1OC(C)=O", "strain or isolate": "BaL", "method": "luciferase", "value": ">50 µM"}
{"SMILES": "NCCN1CCC(NC(=O)C(=O)Nc2ccc(Cl)cc2)CC12CCCCC2", "strain or isolate": "YTA", "method": "single cycle", "value": "11 µM"}
{"SMILES": "Cc1nnc(C(C)C)n1C1C[C@H]2CC[C@@H](C1)N2CC[C@H](NC(=O)C1CCC(F)(F)CC1)c1ccccc1", "strain or isolate": "CH058", "method": "luciferase", "value": "0.037 µM"}
{"SMILES": "COc1ccc(C(=O)Nc2ccc(CCC(=O)/C=C/c3ccc(OC(C)=O)c(OC(C)=O)c3)cc2)cc1", "strain or isolate": "BaL", "method": "luciferase", "value": "18.85 µM"}
{"SMILES": "CC1(C)CC(NC(=O)C(=O)Nc2ccc(Cl)cc2)CC(C)(C)N1", "strain or isolate": "YTA", "method": "single cycle", "value": "8.1 µM"}
{"SMILES": "COc1cccc2ccc(-c3nnc(-c4cccc(C)c4)o3)nc12", "strain or isolate": "VB59", "method": "luminescence", "value": "36.93 µM"}
{"SMILES": "Oc1cccc2ccc(/C=N/Nc3ccc(Cl)cc3)nc12", "strain or isolate": "VB59", "method": "luciferase", "value": "88.4 µM"}
{"SMILES": "COc1cccc2ccc(-c3nnc(-c4ccc(C(F)(F)F)cc4)o3)nc12", "strain or isolate": "UG070", "method": "luminescence", "value": "121 µM"}
{"SMILES": "Cc1ccc(C(=O)Nc2ccc(CCC(=O)CCc3ccc(O)c(O)c3)cc2)cc1", "strain or isolate": "BaL", "method": "luciferase", "value": "36.3 µM"}
{"SMILES": "CCC(=O)c1ccc(F)c([C@@H]2C[C@@H]2NC(=O)Nc2ccc(C#N)cn2)c1O", "strain or isolate": "LAI", "changes": "NNRTI-resistant (RT K101E)", "method": "β-galactosidase / luminescence", "value": "0.00325 µM"}
{"SMILES": "Cc1cc(C)cc(N/N=C/c2ccc3cccc(O)c3n2)c1", "strain or isolate": "VB59", "method": "luciferase", "value": "91.85 µM"}
{"SMILES": "CCCCCCCCCCCCCCCCCC1O[C@@H](CO)[C@H](O)[C@H](O)[C@@H]1O", "strain or isolate": "NL4-3", "method": "luciferase", "value": "42.18 µM"}
{"SMILES": "COc1ccc(N=Cc2cc3ccccc3nc2Nc2ccc(OC)cc2)cc1", "strain or isolate": "UG070", "method": "luminescence", "value": ">130 µM"}
{"SMILES": "CC(=O)Oc1ccc(CCC(=O)CCc2ccc(NC(=O)Cc3cccs3)cc2)cc1OC(C)=O", "strain or isolate": "BaL", "method": "luciferase", "value": "15.99 µM"}
{"SMILES": "CC(C)c1ccc(N/N=C/c2ccc3cccc(O)c3n2)cc1", "strain or isolate": "VB59", "method": "luciferase", "value": "54.46 µM"}
{"SMILES": "O=C(Cn1ccc(=O)[nH]c1=O)Nc1ccc([N+](=O)[O-])cn1", "strain or isolate": "ADA5", "method": "luciferase", "value": "1.3 µM"}
{"SMILES": "Oc1cccc2ccc(/C=N/Nc3cccc(C(F)(F)F)c3)nc12", "strain or isolate": "VB59", "method": "luciferase", "value": "24.78 µM"}
{"SMILES": "NCCN(CCN)CCN1CCC(NC(=O)C(=O)Nc2ccc(Cl)cc2)CC12CCCCC2", "strain or isolate": "YTA", "method": "single cycle", "value": "6 µM"}
{"SMILES": "Cc1cn(CC(=O)Nc2ccc([N+](=O)[O-])cn2)c(=O)[nH]c1=O", "strain or isolate": "ADA5", "method": "luciferase", "value": "30.65 µM"}
{"SMILES": "N#Cc1ccc(S(=O)(=O)n2nc(Nc3ccc(C#N)c(Cl)c3)nc2N)c(Cl)c1", "strain or isolate": "IIIB", "method": "luciferase / RT activity", "value": "0.1531 µM"}
{"SMILES": "Cc1cc(C#N)cc(C)c1Oc1nc(Nc2ccc(C#N)cc2)nc(N)c1Br", "changes": "NL/103+348", "value": "0.0086 µM"}
{"SMILES": "Cc1cc(Cl)cc(/C=N/NC(=O)c2ccc(O)cc2O)c1O", "strain or isolate": "92US657", "method": "fluorescence", "value": "2.3 µM"}
{"SMILES": "COc1ccc(C2CC(=O)c3c(O)cc(O[C@@H]4O[C@H](CO[C@@H]5O[C@@H](C)[C@H](O)[C@@H](O)[C@H]5O)[C@@H](O)[C@H](O)[C@H]4O)cc3O2)cc1O", "strain or isolate": "HXB2", "method": "visual reading / absorbance", "setting": "pseudotyped", "value": ">100 µg/mL"}
{"SMILES": "Cc1cn(CC(=O)Nc2ccccn2)c(=O)[nH]c1=O", "strain or isolate": "IIIB", "method": "luciferase", "value": "23 µM"}
{"SMILES": "O=C1NC(=NCc2cccc(F)c2)S/C1=C\\c1ccc(-c2ccc(C(=O)O)c(O)c2)o1", "strain or isolate": "NL4-3", "method": "β-galactosidase", "value": "3 µM"}
{"SMILES": "Nc1nc(Nc2ccc(Cl)cc2)nn1S(=O)(=O)c1cnn(-c2ccc(C(F)(F)F)cn2)c1", "strain or isolate": "IIIB", "changes": "Y181C/K103N", "method": "luciferase / RT activity", "value": ">1 µM"}
{"SMILES": "CC(C)(C)OC(=O)NCC(=O)NCCN1CCC(NC(=O)C(=O)Nc2ccc(Cl)cc2)CC12CCCCC2", "strain or isolate": "YTA", "method": "single cycle", "value": "5.8 µM"}
{"SMILES": "Cc1ccnc2c1NC(=O)c1cccnc1N2C1CC1", "strain or isolate": "SF33", "changes": "V106I", "method": "p24 / ELISA", "value": "0.12 µM"}
{"SMILES": "O=C(Nc1ccc2c(c1)OCO2)C(=O)NC1CCNC2(CCCCC2)C1", "strain or isolate": "YTA", "method": "single cycle", "value": ">30 µM"}
{"SMILES": "Oc1cccc2ccc(/C=N/Nc3ccc(C(F)(F)F)cc3)nc12", "strain or isolate": "UG070", "method": "luciferase", "value": ">150 µM"}
{"SMILES": "CCc1ccc(CCN=C2NC(=O)/C(=C/c3ccc(-c4ccc(C(=O)O)c(O)c4)o3)S2)cc1", "method": "β-galactosidase", "setting": "pseudotyped", "value": "5.6 µM"}
{"SMILES": "Cc1ccnc2c1NC(=O)c1cccnc1N2C1CC1", "strain or isolate": "NL4-3", "method": "luciferase", "value": "0.06805 µM"}
{"SMILES": "Cc1nnc(-c2cccc(-c3cccc(C(=O)N4CCCCC4)c3)c2)o1", "strain or isolate": "CH119", "method": "luminescence", "setting": "pseudotyped", "value": ">30 µM"}
{"SMILES": "CCN(CC)c1ccc(/C=N/NC(=O)c2ccncc2)c(O)c1", "strain or isolate": "92US657", "method": "fluorescence", "value": "1.3 µM"}
{"SMILES": "Oc1cccc2ccc(/C=N/Nc3ccccc3)nc12", "strain or isolate": "UG070", "method": "luciferase", "value": "21.04 µM"}
{"SMILES": "Cc1cn([C@H]2C[C@H](N=[N+]=[N-])[C@@H](CO)O2)c(=O)[nH]c1=O", "strain or isolate": "81A", "method": "luciferase", "value": "0.001964 µM"}
{"SMILES": "COc1ccc(-c2nnc(-c3ccc4cccc(OC)c4n3)o2)cc1", "strain or isolate": "UG070", "method": "luminescence", "value": "135 µM"}
{"SMILES": "C#C[C@@]1(COP(=O)(O)OP(=O)(O)OP(=O)(O)O)C=C[C@H](n2cc(C)c(=O)[nH]c2=O)O1", "strain or isolate": "NL4-3", "changes": "T165A/M184V", "method": "luciferase", "value": "6 µM"}
{"SMILES": "Cc1cn(CC(=O)Nc2ccc(Br)cn2)c(=O)[nH]c1=O", "strain or isolate": "UG070", "method": "luciferase", "value": "39.43 µM"}
{"SMILES": "CC(C)(C)OC(=O)NCCN1CCC(NC(=O)C(=O)Nc2ccc(Cl)cc2)CC12CCCCC2", "strain or isolate": "YTA", "method": "single cycle", "value": ">30 µM"}
{"SMILES": "O=C1NC(=NCCc2ccccc2)S/C1=C\\c1ccc(-c2ccc(C(=O)O)c(O)c2)o1", "strain or isolate": "NL4-3", "method": "β-galactosidase", "value": "0.8 µM"}
{"SMILES": "COc1ccccc1-c1nnc(-c2ccc3cccc(OC)c3n2)o1", "strain or isolate": "VB59", "method": "luminescence", "value": ">600 µM"}
{"SMILES": "Oc1cccc2ccc(/C=N/Nc3ccc(F)cc3)nc12", "strain or isolate": "VB59", "method": "luciferase", "value": "25.56 µM"}
{"SMILES": "C[C@@H]1O[C@@H](Oc2c(-c3ccc(O)cc3)oc3cc(O)cc(O)c3c2=O)[C@H](O[C@@H]2O[C@H](COC(=O)/C=C/c3ccc(O)cc3)[C@@H](O)[C@H](O)[C@H]2O)[C@H](O)[C@H]1O", "strain or isolate": "HXB2", "method": "visual reading / absorbance", "setting": "pseudotyped", "value": "10.1 µM"}
{"SMILES": "N#CCc1ccc(Nc2nc(N)n(S(=O)(=O)c3cccc4ccc(CC#N)cc34)n2)cc1", "strain or isolate": "IIIB", "method": "luciferase / RT activity", "value": "0.000182 µM"}
{"SMILES": "Cc1ccc(NC(=O)C(=O)NC2CCNC3(CCCCC3)C2)cc1", "strain or isolate": "YTA", "method": "single cycle", "value": "24 µM"}
{"SMILES": "Cc1ccc(N/N=C/c2ccc3cccc(O)c3n2)c(C)c1", "strain or isolate": "UG070", "method": "luciferase", "value": "38.78 µM"}
{"SMILES": "O=C(Cn1ccc(=O)[nH]c1=O)Nc1ccccn1", "strain or isolate": "UG070", "method": "luciferase", "value": "113 µM"}
{"SMILES": "Cc1nnc(C(=O)NC(C)(C)c2nc(C(=O)NCc3ccc(F)cc3)c(O)c(=O)n2C)o1", "strain or isolate": "SF162", "method": "luciferase / luminescence", "value": "0.00427 µM"}
{"SMILES": "Cc1ccc2cccc(O)c2n1", "strain or isolate": "VB59", "method": "luciferase", "value": "3.77 µM"}

Repeating the final 3 entries:

O=C(Cn1ccc(=O)[nH]c1=O)Nc1ccccn1 ; strain or isolate: UG070 ; method: luciferase ; value: 113 µM
Cc1nnc(C(=O)NC(C)(C)c2nc(C(=O)NCc3ccc(F)cc3)c(O)c(=O)n2C)o1 ; strain or isolate: SF162 ; method: luciferase / luminescence ; value: 0.00427 µM
Cc1ccc2cccc(O)c2n1 ; strain or isolate: VB59 ; method: luciferase ; value: 3.77 µM

Conditions beyond the fields shown may differ between rows.